Measured values from several laboratories, pooled; numbers as filed in NIAID ChemDB.

All rows: growth or infection tests; agent: Mycobacterium avium complex; measure: MIC50

MIC50, MIC90 and the like: level of inhibition, or share of isolates inhibited.

compound	strain	result
CCC1CN(c2c(F)cc3c(=O)c(C(=O)O)cn(-c4ccc(F)cc4F)c3c2OC)CCN1	14 strains	≥32 µg/mL
CC1CN(c2c(F)c(N)c3c(=O)c(C(=O)O)cn(C4CC4)c3c2F)CCN1C	-	0.5 µg/mL
CO[C@H]1/C=C/O[C@@]2(C)Oc3c(C)c(O)c4c(O)c(c(/C=N/N5CCN(C)CC5)c(O)c4c3C2=O)NC(=O)/C(C)=C\C=C\[C@H](C)[C@H](O)[C@@H](C)[C@@H](O)[C@@H](C)[C@H](OC(C)=O)[C@@H]1C	-	0.9 µg/mL
NCC1CCN(c2c(F)cc3c(=O)c(C(=O)O)cn(C4CC4)c3c2F)C1	-	2 µg/mL
CC1CN(c2nc3c(cc2F)c(=O)c(C(=O)O)cn3C(C)(C)C)CCN1	14 strains	0.5 µg/mL
CCNCC1CCN(c2c(F)cc3c(=O)c(C(=O)O)cn(CC)c3c2F)C1	-	11.9 µg/mL
CN1CC2CC1CN2c1c(F)cc2c(=O)c(C(=O)O)cn(C3CC3)c2c1F	14 strains	2 µg/mL
CO[C@H]1/C=C/O[C@@]2(C)Oc3c(C)c(O)c4c(O)c(c(/C=N/N5CCN(C)CC5)c(O)c4c3C2=O)NC(=O)/C(C)=C\C=C\[C@H](C)[C@H](O)[C@@H](C)[C@@H](O)[C@@H](C)[C@H](OC(C)=O)[C@@H]1C	-	>1 µg/mL
CC[C@@H](C)N1CCN(c2cc(=O)c3nc4c(oc3c2)c2c(=O)c3c(O)c(C)c5c(c34)=C(O)[C@@](C)(O/C=C/[C@H](OC)[C@@H](C)[C@@H](OC(C)=O)[C@H](C)[C@H](O)[C@H](C)[C@@H](O)[C@@H](C)/C=C/C=C(/C)C(=O)N2)O5)CC1	18 strains	0.1 µg/mL
CC(N)C1CCN(c2nc3c(cc2F)c(=O)c(C(=O)O)cn3C2CC2)C1	-	16 µg/mL
CO[C@H]1/C=C/O[C@@]2(C)Oc3c(C)c(O)c4c(O)c(c(/C=N/N5CCN(C6CCCC6)CC5)c(O)c4c3C2=O)NC(=O)/C(C)=C\C=C\[C@H](C)[C@H](O)[C@@H](C)[C@@H](O)[C@@H](C)[C@H](OC(C)=O)[C@@H]1C	-	0.19 µg/mL
CO[C@H]1/C=C/O[C@@]2(C)Oc3c(C)c(O)c4c(O)c(c5c(c4c3C2=O)NC2(CCN(CC(C)C)CC2)N=5)=NC(=O)/C(C)=C\C=C\[C@H](C)[C@H](O)[C@@H](C)[C@@H](O)[C@@H](C)[C@H](OC(C)=O)[C@@H]1C	26 isolates (HIV+)	0.25 µg/mL
CCC1CN(c2c(F)cc3c(=O)c(C(=O)O)cn(C4CC4)c3c2F)CCN1	14 strains	2 µg/mL
CN[C@@H]1[C@H](O[C@H]2[C@H](O[C@H]3[C@H](O)[C@@H](O)[C@H](N=C(N)N)[C@@H](O)[C@@H]3N=C(N)N)O[C@@H](C)[C@]2(O)C=O)O[C@@H](CO)[C@H](O)[C@H]1O	-	2.2 µg/mL
CN1CC2CCC1CN2c1c(F)cc2c(=O)c(C(=O)O)cn(C3CC3)c2c1F	-	1 µg/mL
CN1CCN(CCCN=c2cc3n(-c4ccc(Cl)cc4)c4ccccc4nc-3cc2Nc2ccccc2)CC1	10 srtains	0.45 µg/mL
CNC1CCN(c2c(F)cc3c(=O)c(C(=O)O)cn(C4CC4)c3c2F)C1	-	2 µg/mL
Clc1ccc2c(c1)nc1cc(Nc3ccccc3)c(=NC3CCCCC3)cc-1n2-c1ccccc1	-	0.1 µg/mL
CC[C@@H](CO)NCCN[C@@H](CC)CO	-	<0.5 µg/mL
CCOc1c(N2CCC(C(C)(C)N)C2)c(F)cc2c(=O)c(C(=O)O)cn(C3CC3)c12	-	4 µg/mL
CN1CCCC1CCN=c1cc2n(-c3ccc(Cl)cc3)c3ccccc3nc-2cc1Nc1ccccc1	10 srtains	1.6 µg/mL
NC1CCN(c2c(F)cc3c(=O)c(C(=O)O)cn(C4CC4)c3c2F)C1	-	8 µg/mL
CCC1CN(c2nc3c(cc2F)c(=O)c(C(=O)O)cn3C2CC2)CCN1	14 strains	8 µg/mL
CN[C@@H]1[C@H](O[C@H]2[C@H](O[C@H]3[C@H](O)[C@@H](O)[C@H](N=C(N)N)[C@@H](O)[C@@H]3N=C(N)N)O[C@@H](C)[C@]2(O)C=O)O[C@@H](CO)[C@H](O)[C@H]1O	-	>0.4 µg/mL
C[C@@H]1CN(c2c(F)c(N)c3c(=O)c(C(=O)O)cn(C4CC4)c3c2F)C[C@H](C)N1	20 strains	0.1–0.2 µg/mL
CCC(C)N1CCN(c2cc(=O)c3nc4c(oc3c2)c2c(=O)c3c(O)c(C)c5c(c34)=C(O)[C@@](C)(O/C=C/[C@H](OC)[C@@H](C)[C@@H](OC(C)=O)[C@H](C)[C@H](O)[C@H](C)[C@@H](O)[C@@H](C)/C=C/C=C(/C)C(=O)N2)O5)CC1	18 strains	0.1 µg/mL
O=C(O)c1cn(C2CC2)c2c(F)c(N3CCN4CCC3C4)c(F)cc2c1=O	-	2 µg/mL

A second listing of 2 rows from above:

compound | strain | result
O=C(O)c1cn(C2CC2)c2c(F)c(N3CCN4CCC3C4)c(F)cc2c1=O | - | 2 µg/mL
CO[C@H]1/C=C/O[C@@]2(C)Oc3c(C)c(O)c4c(O)c(c(/C=N/N5CCN(C6CCCC6)CC5)c(O)c4c3C2=O)NC(=O)/C(C)=C\C=C\[C@H](C)[C@H](O)[C@@H](C)[C@@H](O)[C@@H](C)[C@H](OC(C)=O)[C@@H]1C | - | 0.19 µg/mL

Two numbers with a dash give a range or band. Blank or dashed fields: not listed here. Conditions beyond the fields shown may differ between rows.